Results of unrelated studies side by side (data: NIAID ChemDB).

Common to all: whole-cell or culture tests; species: Mycobacterium tuberculosis

Inhibition is in % at the dose shown (toxicity tests: loss of growth or viability).

smiles	read by	mutations	strain or isolate	measure	tested at	result
O=C1C(c2ccc(Oc3ccccc3)cc2)=[N+]([O-])c2cc3c(cc21)OCO3	MTT	-	H37Rv	EC50	-	13.4 µM
C[N+]12C=CC=C1C(N1CCCC1)c1scc(-c3ccc(Br)cc3)c12.[I-]	BACTEC	-	H37Rv	inhibition	6.25 µg/mL	82%
Cc1cccc2c3c([nH]c12)-c1[nH]c(=O)ncc1CCC3	resazurin	-	H37Rv	inhibition	50 µg/mL	0%
O=C(N/N=C/c1ccccc1O)c1ccc(F)cc1	-	-	H37Rv	EC50	-	>6.25 µg/mL
Cn1nnc(-c2ccc(-c3ccc(N4C[C@H](CO)OC4=O)cc3F)cn2)n1	-	-	25 isolates (isoniazid rifampin-resistant)	MIC50	-	0.25 µg/mL
COC1=C[C@@H](C)[C@@H]2C[C@H]3OC(=O)C[C@@H]4[C@@]3(C)[C@H]([C@H](O)C[C@@]4(C)C(=O)C3(C)COC(=O)C3)[C@@]2(C)C1=O	-	-	H37Rv	inhibition	12.5 µg/mL	4%
Cc1nccnc1NN	BACTEC	-	H37Rv	MIC bound	-	>12.5 µg/mL
CC1=CC(=O)[C@@H](O)[C@]2(C)[C@@H]3[C@]45COC(=O)[C@@]3(O)C(C)[C@@H]4CC(=O)O[C@@H]5C[C@@H]12	-	-	H37Rv	inhibition	12.5 µg/mL	15%
CC(NC(=O)/C=C/c1ccco1)C(=O)NC(Cc1ccccc1)C(N)=O	BACTEC	-	H37Rv	inhibition	12.5 µg/mL	0%
O=C(N/N=C/c1ccc(F)cc1)c1ccc(F)cc1	-	-	H37Rv	MIC	-	>6.25 µg/mL
CC(C)=Nc1c(-c2ccccc2)c2cc(Cl)ccc2[nH]c1=O	-	-	H37Rv	MIC	-	>6.25 µg/mL
CC(C)=CC[C@H](O)C1=CC(=O)c2c(O)ccc(O)c2C1=O	-	-	PZA-R	MIC	-	6.4 µg/mL
COc1ccc2nc3cc(Cl)ccc3c(Nc3ccc(S(=O)(=O)Nc4nccs4)cc3)c2c1	-	-	H37Rv	EC50	-	<6.25 µg/mL
c1ccc2c3c([nH]c2c1)-c1[nH]ncc1CCC3	resazurin	-	H37Rv	inhibition	50 µg/mL	0%
CCCCS/C(N)=N/NC(=O)c1ccccc1	-	-	H37Rv	MIC	-	>100 µg/mL
COc1ccc2nc3cc(Cl)ccc3c(Nc3ccc(S(=O)(=O)Nc4nc(C)cc(C)n4)cc3)c2c1	-	-	H37Rv	EC50	-	<6.25 µg/mL
NC(=S)NNC(=O)c1ccc(Cl)cc1Cl	-	-	H37Rv	MIC	-	>100 µg/mL
CCOc1ccc(-n2c(-c3ccc(O)cc3)cs/c2=N\NC(=O)COc2cnccn2)cc1	-	-	H37Rv	MIC	-	10.4 µg/mL
O=C(NC1CCC2(CCCCC2)CC1)c1cc2c(Cl)cc(Cl)cc2[nH]1	resazurin / fluorescence	-	H37Rv	MIC	-	0.003 µM
COC1=C[C@@H](C)[C@@H]2C[C@H]3OC(O)C[C@H]4[C@](C)(O)[C@H](OC)[C@@H](O)[C@H]([C@@]2(C)C1=O)[C@@]34C	-	-	H37Rv	inhibition	12.5 µg/mL	8%
COc1ccc(C2=[N+]([O-])c3ccccc3C2=O)cc1	MTT	-	H37Rv	MIC	-	50 µM
O=C(COc1cnccn1)N/N=c1\scc(-c2ccc(F)cc2)n1-c1ccc(Cl)cc1	-	-	H37Rv	MIC	-	12.7 µg/mL
O=C(/N=N/C(=O)N1CCOCC1)N1CCOCC1	resazurin	-	H37Rv	MIC bound	-	>6.25 µg/mL
O=c1[nH]c(=S)c(CO)cn1C1OC(CO)C(O)C1O	resazurin	-	H37Ra	MIC100	-	50 µg/mL
O=c1oc2ccc(Br)cc2cc1-c1cs/c(=N\N=C\c2ccc(Br)cc2)n1Cc1ccccc1	-	-	H37Rv	inhibition	6.25 µg/mL	<11%
Cc1cc2nc3[nH]c4c(Cl)cc(Cl)cc4c3nc2cc1C	BACTEC	-	H37Rv	inhibition	12.5 µg/mL	22%
CCn1cc(C(=O)O)c(=O)c2cc(F)c(N3CCNCC3)nc21	-	-	-	MIC50	-	3 µg/mL
COc1ccc(C(=O)NNC(N)=S)cc1	-	-	H37Rv	MIC	-	>100 µg/mL
COc1ccc2c(c1)C(=O)C(c1ccc(Cl)c(C(F)(F)F)c1)=[N+]2[O-]	MTT	-	H37Rv	MIC	-	12.5 µM
COC1=C[C@@H](C)[C@@H]2C[C@H]3OC(=O)C[C@H]4[C@](C)(O)[C@@H]5OCO[C@H]5[C@H]([C@@]2(C)C1=O)[C@@]34C	-	-	H37Rv	inhibition	12.5 µg/mL	9%
O=C(N/N=C/c1cccs1)c1ccc(Br)cc1	-	-	H37Rv	inhibition	6.25 µg/mL	0%
COc1ccc2c(c1)C(=O)C(c1ccc3cc(OC)ccc3c1)=[N+]2[O-]	MTT	-	H37Rv	EC50	-	2.8 µM
COC1=C[C@@H](C)[C@@H]2C[C@H]3OC(O)C[C@H]4[C@](C)(O)[C@H](OC)[C@@H](OC(C)=O)[C@H]([C@@]2(C)C1=O)[C@@]34C	-	-	H37Rv	inhibition	12.5 µg/mL	12%
O=c1oc2ccccc2cc1-c1cs/c(=N\N=C\c2ccc(Cl)c(Cl)c2)n1Cc1ccccc1	-	-	H37Rv	MIC	-	>6.25 µg/mL
CC(=O)Nc1c(OC(C)=O)nc2ccc([N+](=O)[O-])cc2c1-c1ccccc1	-	-	H37Rv	EC50	-	>6.25 µg/mL
Cc1ccc(C)c(NC(=O)CC/C(=N\NC(=O)c2c(O)ccc3ccccc23)C(C)C(=O)c2ccc(O)cc2)c1	BACTEC	-	H37Rv	MIC bound	-	>12.5 µg/mL
CO[C@H]1/C=C/O[C@@]2(C)Oc3c(C)c(O)c4c(O)c(c(/C=N/N5CCN(C)CC5)c(O)c4c3C2=O)NC(=O)/C(C)=C\C=C\[C@H](C)[C@H](O)[C@@H](C)[C@@H](O)[C@@H](C)[C@H](OC(C)=O)[C@@H]1C	fluorescence	Rifampicin-resistant rpoB H445N	-	MIC	-	0.33 µM
CC(C)=CC(=O)O[C@H]1C(=O)O[C@@H]2C[C@H]3[C@H](C)C(=O)C(O[C@@H]4O[C@H](CO)[C@@H](O)[C@H](O)[C@H]4O)=C[C@]3(C)[C@H]3[C@@H](O)[C@H](O)C4(C(=O)O)OC[C@]32[C@@H]14	-	-	H37Rv	inhibition	12.5 µg/mL	7%
O=C(CNN1C(=O)CSC1=Nc1cccc2ccccc12)c1cccc2c1Nc1ccccc1S2	BACTEC	-	H37Rv	MIC bound	-	>12.5 µg/mL
O=C(COc1cnccn1)N/N=c1\scc(-c2ccc(Br)cc2)n1-c1ccc(Cl)cc1Cl	-	-	H37Rv	MIC	-	10.5 µg/mL
CN1C(=O)C2CCC1n1c(=O)n(-c3ccccc3)c(=O)n12	resazurin	-	H37Rv	MIC bound	-	>6.25 µg/mL
CCc1cn(C2OC(COC(C)=O)C(OC(C)=O)C2F)c(=O)[nH]c1=O	resazurin	-	H37Ra	MIC68	-	100 µg/mL
COc1ccc2nc3cc(Cl)ccc3c(Nc3ccc(S(=O)(=O)Nc4cc(C)on4)cc3)c2c1	-	-	H37Rv	EC50	-	<6.25 µg/mL
COC1=C[C@@H](C)[C@@H]2C[C@H]3OC(=O)C[C@H]4C(C)=C(OC)C(=O)[C@H]([C@@]2(C)C1=O)[C@@]34C	-	-	H37Rv	inhibition	12.5 µg/mL	7%
COc1ccc2nc3cc(Cl)ccc3c(Nc3ccc(S(=O)(=O)N=C(N)N)cc3)c2c1	-	-	H37Rv	EC50	-	<6.25 µg/mL
Cc1ccc2[nH]c3c(c2c1)CCCc1cnn(-c2ccccc2)c1-3	resazurin	-	H37Rv	inhibition	50 µg/mL	0%
Cn1c(=O)c(N)c(-c2ccccc2)c2cc(Cl)ccc21	-	-	H37Rv	EC50	-	>6.25 µg/mL
CC(C)(C)c1ncc(CCCN=C(N)N)[nH]c1=O	BACTEC	-	H37Rv	MIC	-	6.25 µg/mL
N/C(=N\NC(=O)c1ccc([N+](=O)[O-])cc1)SCc1cccc(Cl)c1	-	-	H37Rv	MIC	-	>100 µg/mL
O/N=C/c1cnccn1	BACTEC	-	H37Rv	MIC	-	≥12.5 µg/mL
CC(=O)Nc1c(-c2ccccc2)c2cc(Cl)ccc2n(C)c1=O	-	-	H37Rv	inhibition	6.25 µg/mL	0%
CCCCn1c(-c2ccc(F)cc2)cs/c1=N\NC(=O)COc1cnccn1	-	-	H37Rv	MIC	-	7.6 µg/mL
O=C(NO)c1cccc(C(=O)NO)n1	resazurin	-	H37Rv	MIC bound	-	>6.25 µg/mL
Cc1ccc(C(=O)NNC(N)=S)cc1	-	-	H37Rv	MIC	-	>100 µg/mL
C[C@@H]1C(NC(=O)c2cc3c(Cl)cc(Cl)cc3[nH]2)C[C@H]2C[C@@H]1C2(C)C	resazurin / fluorescence	-	V4207	MIC	-	0.0156 µM
CCOC(=O)C(=O)NNc1cccc(Cl)n1	BACTEC	-	H37Rv	inhibition	12.5 µg/mL	2%
CC(C)(O)[C@H]1CC[C@@]2(C)C1C[C@H](O)[C@]1(C)C2CCC2[C@@]3(C)CC[C@H](O)C(C)(C)C3CC[C@]21C	-	-	-	MIC	-	>50 µg/mL
COc1ccccc1/C=N/N=c1\scc(-c2cc3ccccc3oc2=O)n1Cc1ccccc1	-	-	H37Rv	MIC	-	>6.25 µg/mL
O=c1c2ccccc2nnn1CCc1ccccc1	BACTEC	-	H37Rv	inhibition	12.5 µg/mL	25%
O=C1C=[N+]([O-])c2ccccc21	MTT	-	H37Rv	EC50	-	5.7 µM
COc1ccc2nc3cc(Cl)ccc3c(Nc3ccc(/C(N)=N/NC(N)=S)cc3)c2c1	-	-	H37Rv	EC50	-	<6.25 µg/mL
COC(=O)CCC1=CC(=O)C(OC)=CC1=O	BACTEC	-	H37Rv	inhibition	128 µg/mL	99%
O=C(N/N=C/Cc1ccccc1)c1ccc(F)cc1	-	-	H37Rv	inhibition	6.25 µg/mL	4%
O=c1oc2ccc(Br)cc2cc1-c1cs/c(=N\N=C\c2ccc(F)cc2)n1Cc1ccccc1	-	-	H37Rv	MIC	-	>6.25 µg/mL
COC(=O)[C@]12OC[C@@]34[C@@H](CC5=C(C)C(=O)C(O)=C[C@]5(C)[C@H]3[C@@H](O)[C@@H]1O)OC(=O)[C@H](OC(=O)/C=C(\C)C(C)C)[C@@H]24	-	-	H37Rv	inhibition	12.5 µg/mL	15%
CCOC(=O)c1c(SCc2cc(=O)[nH]c(=O)[nH]2)n(-c2ccccc2)c(=S)n(-c2ccccc2)c1=O	BACTEC	-	H37Rv	MIC bound	-	>12.5 µg/mL
O=C(N/N=C/c1ccc(Br)s1)c1ccc(F)cc1	-	-	H37Rv	EC50	-	<6.25 µg/mL
Nc1c(-c2ccccc2)c2cc([N+](=O)[O-])ccc2[nH]c1=O	-	-	H37Rv	inhibition	6.25 µg/mL	0%
CCc1cn(C2OC(CO)C(Br)C2F)c(=O)[nH]c1=O	resazurin	-	H37Ra	MIC56	-	10 µg/mL
COc1ccc2c(c1)CCC1=C2CCC2(C)C(=O)NC(=O)N12	BACTEC	-	H37Rv	MIC bound	-	>12.5 µg/mL
CC[C@H]1OC(=O)[C@H](C)[C@@H](O[C@H]2C[C@@](C)(OC)[C@@H](O)[C@H](C)O2)[C@H](C)[C@@H](O[C@@H]2O[C@H](C)C[C@H](N(C)C)[C@H]2O)[C@](C)(O)C[C@@H](C)C(=O)[C@H](C)[C@@H](O)[C@]1(C)O	-	-	-	MIC90	-	>10 µg/mL
C=C1C(=O)O[C@@H]2C[C@@]3(C)C=CC(=O)C(=C)[C@@H]3C[C@H]12	BACTEC	-	H37Rv	inhibition	12.5 µg/mL	92%
CC(=O)Nc1c(C)c2ccccc2[nH]c1=O	-	-	H37Rv	EC50	-	>6.25 µg/mL
CN(C)c1ccc(/C=N/NC(=O)c2ccc(F)cc2)cc1	-	-	H37Rv	EC50	-	>6.25 µg/mL
O=c1oc2ccccc2cc1-c1cs/c(=N\N=C\c2ccc(F)cc2)n1Cc1ccccc1	-	-	H37Rv	inhibition	6.25 µg/mL	<11%
COc1ccc2cc(C3=[N+]([O-])c4cc5c(cc4C3=O)OCO5)ccc2c1	MTT	-	H37Rv	MIC	-	>100 µM
Clc1ccc(/C=N/Nc2ccccn2)c(Cl)c1	BACTEC	-	H37Rv	MIC bound	-	>12.5 µg/mL
COc1ccc(/C=N/N=c2\scc(-c3cc4cc(Br)ccc4oc3=O)n2Cc2ccccc2)cc1	-	-	H37Rv	MIC	-	>6.25 µg/mL
COc1ccc(C2CC(=O)N(c3ccncc3)C(=O)C2)cc1	resazurin	-	H37Rv	inhibition	6.25 µg/mL	11%
CC(=O)O[C@H]1CC[C@@]2(C)C(CC[C@]3(C)C2CCC2[C@@]4(C)CC[C@H](C(C)(C)O)C4C[C@H](OC(C)=O)[C@]23C)C1(C)C	-	-	-	MIC	-	>50 µg/mL

For reference, 11 entries again:

| smiles | read by | mutations | strain or isolate | measure | tested at | result |
|---|---|---|---|---|---|---|
| O=C(COc1cnccn1)N/N=c1\scc(-c2ccc(F)cc2)n1-c1ccc(Cl)cc1 | - | - | H37Rv | MIC | - | 12.7 µg/mL |
| N/C(=N\NC(=O)c1ccc([N+](=O)[O-])cc1)SCc1cccc(Cl)c1 | - | - | H37Rv | MIC | - | >100 µg/mL |
| O=C(N/N=C/c1ccc(F)cc1)c1ccc(F)cc1 | - | - | H37Rv | MIC | - | >6.25 µg/mL |
| COC(=O)CCC1=CC(=O)C(OC)=CC1=O | BACTEC | - | H37Rv | inhibition | 128 µg/mL | 99% |
| COc1ccc2c(c1)C(=O)C(c1ccc(Cl)c(C(F)(F)F)c1)=[N+]2[O-] | MTT | - | H37Rv | MIC | - | 12.5 µM |
| O=C(CNN1C(=O)CSC1=Nc1cccc2ccccc12)c1cccc2c1Nc1ccccc1S2 | BACTEC | - | H37Rv | MIC bound | - | >12.5 µg/mL |
| CN1C(=O)C2CCC1n1c(=O)n(-c3ccccc3)c(=O)n12 | resazurin | - | H37Rv | MIC bound | - | >6.25 µg/mL |
| O=c1[nH]c(=S)c(CO)cn1C1OC(CO)C(O)C1O | resazurin | - | H37Ra | MIC100 | - | 50 µg/mL |
| CCCCn1c(-c2ccc(F)cc2)cs/c1=N\NC(=O)COc1cnccn1 | - | - | H37Rv | MIC | - | 7.6 µg/mL |
| COC1=C[C@@H](C)[C@@H]2C[C@H]3OC(=O)C[C@@H]4[C@@]3(C)[C@H]([C@H](O)C[C@@]4(C)C(=O)C3(C)COC(=O)C3)[C@@]2(C)C1=O | - | - | H37Rv | inhibition | 12.5 µg/mL | 4% |
| COc1ccc2nc3cc(Cl)ccc3c(Nc3ccc(S(=O)(=O)Nc4nccs4)cc3)c2c1 | - | - | H37Rv | EC50 | - | <6.25 µg/mL |

Lines come from different laboratories, so protocols vary. An empty or dashed field is not shown. MIC50, MIC90 and the like: level of inhibition, or share of isolates inhibited. ECn: concentration that inhibits the pathogen or its effect by n%. MIC bound comes from a single tested concentration.